Data: PMC5995839, “Exploring the role of unnatural amino acids in antimicrobial peptides” (Scientific Reports, 2018)

Legend:
[1] = EPR of spin-labeled lipids (n-PCSL) in DPPC bilayers; conditions: for hyperfine coupling constant a′N, 5-PCSL / hyperfine coupling constant a′N, 14-PCSL: error 0.2 G; for Order parameter S, 5-PCSL / Order parameter S, 14-PCSL: error <±2%
[2] = EPR of spin-labeled lipids (n-PCSL) in DPPC/DPPG bilayers; conditions: for hyperfine coupling constant a′N, 5-PCSL / hyperfine coupling constant a′N, 14-PCSL: error 0.2 G; for Order parameter S, 5-PCSL / Order parameter S, 14-PCSL: error <±2%

For `CC(C)(C)SSC[C@H](NC(=O)CCCCCN)C(=O)N[C@@H](CCCCN)C(=O)N[C@@H](Cc1ccc2ccccc2c1)C(=O)N[C@@H](Cc1ccc2ccccc2c1)C(=O)N[C@@H](CCCCN)C(=O)N[C@@H](CCCCN)C(=O)N[C@@H](CSSC(C)(C)C)C(=O)NCCCCCC(N)=O` [P9Nal(SS)] (H-[Ahx]C(StBu)K[2Nal][2Nal]KKC(StBu)[Ahx]-NH2), the “hyperfine coupling constant a′N, 5-PCSL” value ([1]; L/P = 30, 25 °C) was 15.6 G, the “hyperfine coupling constant a′N, 14-PCSL” value ([1]; L/P = 30, 25 °C) was 16.8 G and the “Order parameter S, 5-PCSL” value ([1]; L/P = 30, 25 °C) was 0.79. The “Order parameter S, 14-PCSL” value ([1]; L/P = 30, 25 °C) was 0.60, the “hyperfine coupling constant a′N, 5-PCSL” value ([1]; L/P = 50, 25 °C) was 15.2 G and the “hyperfine coupling constant a′N, 14-PCSL” value ([1]; L/P = 50, 25 °C) was 14.8 G. The “Order parameter S, 5-PCSL” value ([1]; L/P = 50, 25 °C) was 0.86, the “Order parameter S, 14-PCSL” value ([1]; L/P = 50, 25 °C) was 0.49 and the “hyperfine coupling constant a′N, 5-PCSL” value ([1]; L/P = 100, 25 °C) was 15.2 G. For the same compound, the “hyperfine coupling constant a′N, 14-PCSL” value ([1]; L/P = 100, 25 °C) was 14.6 G, the “Order parameter S, 5-PCSL” value ([1]; L/P = 100, 25 °C) was 0.87 and the “Order parameter S, 14-PCSL” value ([1]; L/P = 100, 25 °C) was 0.48. For the same compound, the “hyperfine coupling constant a′N, 5-PCSL” value ([2]; L/P = 10, 25 °C) was 15.4 G, the “hyperfine coupling constant a′N, 14-PCSL” value ([2]; L/P = 10, 25 °C) was 16.8 G and the “Order parameter S, 5-PCSL” value ([2]; L/P = 10, 25 °C) was 0.84. For the same compound, the “Order parameter S, 14-PCSL” value ([2]; L/P = 10, 25 °C) was 0.65, the “hyperfine coupling constant a′N, 5-PCSL” value ([2]; L/P = 25, 25 °C) was 15.1 G and the “hyperfine coupling constant a′N, 14-PCSL” value ([2]; L/P = 25, 25 °C) was 15.2 G. The “Order parameter S, 5-PCSL” value ([2]; L/P = 25, 25 °C) was 0.90, the “Order parameter S, 14-PCSL” value ([2]; L/P = 25, 25 °C) was 0.55 and the “hyperfine coupling constant a′N, 5-PCSL” value ([2]; L/P = 30, 25 °C) was 15.1 G. For the same compound, the “hyperfine coupling constant a′N, 14-PCSL” value ([2]; L/P = 30, 25 °C) was 15.0 G, the “Order parameter S, 5-PCSL” value ([2]; L/P = 30, 25 °C) was 0.89 and the “Order parameter S, 14-PCSL” value ([2]; L/P = 30, 25 °C) was 0.53. For the same compound, the “hyperfine coupling constant a′N, 5-PCSL” value ([2]; L/P = 100, 25 °C) was 15.3 G, the “hyperfine coupling constant a′N, 14-PCSL” value ([2]; L/P = 100, 25 °C) was 15.1 G and the “Order parameter S, 5-PCSL” value ([2]; L/P = 100, 25 °C) was 0.86. The “Order parameter S, 14-PCSL” value ([2]; L/P = 100, 25 °C) was 0.51.

Square brackets hold non-standard residues; d marks the D form. Peptide text beside a SMILES is read from it. * marks the point of attachment. 2Nal = N[C@@H](Cc1ccc2ccccc2c1)C(=O)O; Ahx = NCCCCCC(=O)O; StBu = CC(C)(C)S*
